Source: paper PMC3909258, “Tannins from Hamamelis virginiana Bark Extract: Characterization and Improvement of the Antiviral Efficacy against Influenza A Virus and Human Papillomavirus” (PLoS ONE, 2014)

Tested on: H1N1 A/Puerto Rico/8/34-NS116-GFP
Assay: Antiviral effect against GFP reporter virus on A549 cells

Compound	Difference of EC50 to gallic acid when expressed in µg/ml [fold]	More active than gallic acid on a molar basis (EC50 in µM) [fold]	SI higher than other single pseudotannins or tannic acid
O=C(OC[C@H]1O[C@@H](OC(=O)c2cc(O)c(O)c(OC(=O)c3cc(O)c(O)c(O)c3)c2)[C@H](OC(=O)c2cc(O)c(O)c(OC(=O)c3cc(O)c(O)c(O)c3)c2)[C@@H](OC(=O)c2cc(O)c(O)c(OC(=O)c3cc(O)c(O)c(O)c3)c2)[C@@H]1OC(=O)c1cc(O)c(O)c(OC(=O)c2cc(O)c(O)c(O)c2)c1)c1cc(O)c(O)c(OC(=O)c2cc(O)c(O)c(O)c2)c1 [Tannic acid, tannic acid]	1.3	~12	
O=C(O[C@@H]1Cc2c(O)cc(O)cc2O[C@@H]1c1cc(O)c(O)c(O)c1)c1cc(O)c(O)c(O)c1 [EGCG, (−)-epigallocatechin gallate]			2- to 6 fold
